# Experimental data published in patent US20220089698A1, “ANTIBODIES THAT TARGET HIV GP120 AND METHODS OF USE” (published 2022).
# Assays:
# Assay in all cases: cell-based or functional assay
# [1] = target: HIV-1 envelope glycoprotein (gp120) of virus 7141 (HIV-1)
# [2] = target: HIV-1 envelope glycoprotein (gp120) of virus VS001 (HIV-1)
# [3] = target: HIV-1 envelope glycoprotein (gp120) of virus 92US727 (HIV-1)
Binder,Neutralization IC50 [1] [µg/mL],Neutralization IC50 [2] [µg/mL],Neutralization IC50 [3] [µg/mL]
"1.1.124-1 (antibody, human IgG1, kappa) heavy: QVQLLQSGAAVTKPGASVRVSCEASGYNIRDYFIHWWRQAPGQGLQWVGWINPKTGQPNNPRQFQGRVSLTRHASWDFDTFSFYMDLKALRSDDTAVYFCARQRSDYWDFDVWGSGTQVTVSSASTKGPSVFPLAPSSKSTSGGTAALGCLVKDYFPEPVTVSWNSGALTSGVHTFPAVLQSSGLYSLSSVVTVPSSSLGTQTYICNVNHKPSNTKVDKKVEPKSCDKTHTCPPCPAPELLAGPDVFLFPPKPKDTLMISRTPEVTCVVVDVSHEDPEVKFNWYVDGVEVHNAKTKPREEQYNSTYRVVSVLTVLHQDWLNGKEYKCKVSNKALPLPEEKTISKAKGQPREPQVYTLPPSREEMTKNQVSLTCLVKGFYPSDIAVEWESNGQPENNYKTTPPVLDSDGSFFLYSKLTVDKSRWQQGNVFSCSVLHEALHSHYTQKSLSLSPGK light: not shown",9.87,0.3,> 25.4
"1.1.128-1 (antibody, human IgG1, kappa) heavy: QVQLLQSGAAVTKPGASVRVSCEASGYNIRDYFIHWWRQAPGQGLQWVGWINPKTGQPNNPRQFQGRVSLTRHASWDFDTFSFYMDLKALRSDDTAVYFCARQRSDYWDFDVWGSGTQVTVSSASTKGPSVFPLAPSSKSTSGGTAALGCLVKDYFPEPVTVSWNSGALTSGVHTFPAVLQSSGLYSLSSVVTVPSSSLGTQTYICNVNHKPSNTKVDKKVEPKSCDKTHTCPPCPAPELLAGPDVFLFPPKPKDTLMISRTPEVTCVVVDVSHEDPEVKFNWYVDGVEVHNAKTKPREEQYNSTYRVVSVLTVLHQDWLNGKEYKCKVSNKALPLPEEKTISKAKGQPREPQVYTLPPSREEMTKNQVSLTCLVKGFYPSDIAVEWESNGQPENNYKTTPPVLDSDGSFFLYSKLTVDKSRWQQGNVFSCSVLHEALHSHYTQKSLSLSPGK light: not shown",9.5,0.67,> 28.3
"1.1.127-1 (antibody, human IgG1, kappa) heavy: QVQLLQSGAAVTKPGASVRVSCEASGYNIRDYFIHWWRQAPGQGLQWVGWINPKTGQPNNPRQFQGRVSLTRHASWDFDTFSFYMDLKALRSDDTAVYFCARQRSDYWDFDVWGSGTQVTVSSASTKGPSVFPLAPSSKSTSGGTAALGCLVKDYFPEPVTVSWNSGALTSGVHTFPAVLQSSGLYSLSSVVTVPSSSLGTQTYICNVNHKPSNTKVDKKVEPKSCDKTHTCPPCPAPELLAGPDVFLFPPKPKDTLMISRTPEVTCVVVDVSHEDPEVKFNWYVDGVEVHNAKTKPREEQYNSTYRVVSVLTVLHQDWLNGKEYKCKVSNKALPLPEEKTISKAKGQPREPQVYTLPPSREEMTKNQVSLTCLVKGFYPSDIAVEWESNGQPENNYKTTPPVLDSDGSFFLYSKLTVDKSRWQQGNVFSCSVLHEALHSHYTQKSLSLSPGK light: not shown",5.78,0.18,> 23
"1.1.125-1 (antibody, human IgG1, kappa) heavy: QVQLLQSGAAVTKPGASVRVSCEASGYNIRDYFIHWWRQAPGQGLQWVGWINPKTGQPNNPRQFQGRVSLTRHASWDFDTFSFYMDLKALRSDDTAVYFCARQRSDYWDFDVWGSGTQVTVSSASTKGPSVFPLAPSSKSTSGGTAALGCLVKDYFPEPVTVSWNSGALTSGVHTFPAVLQSSGLYSLSSVVTVPSSSLGTQTYICNVNHKPSNTKVDKKVEPKSCDKTHTCPPCPAPELLAGPDVFLFPPKPKDTLMISRTPEVTCVVVDVSHEDPEVKFNWYVDGVEVHNAKTKPREEQYNSTYRVVSVLTVLHQDWLNGKEYKCKVSNKALPLPEEKTISKAKGQPREPQVYTLPPSREEMTKNQVSLTCLVKGFYPSDIAVEWESNGQPENNYKTTPPVLDSDGSFFLYSKLTVDKSRWQQGNVFSCSVLHEALHSHYTQKSLSLSPGK light: not shown",7.69,0.37,> 50
"1.1.130-1 (antibody, human IgG1, kappa) heavy: QVQLLQSGAAVTKPGASVRVSCEASGYNIRDYFIHWWRQAPGQGLQWVGWINPKTGQPNNPRQFQGRVSLTRHASWDFDTFSFYMDLKALRSDDTAVYFCARQRSDYWDFDVWGSGTQVTVSSASTKGPSVFPLAPSSKSTSGGTAALGCLVKDYFPEPVTVSWNSGALTSGVHTFPAVLQSSGLYSLSSVVTVPSSSLGTQTYICNVNHKPSNTKVDKKVEPKSCDKTHTCPPCPAPELLAGPDVFLFPPKPKDTLMISRTPEVTCVVVDVSHEDPEVKFNWYVDGVEVHNAKTKPREEQYNSTYRVVSVLTVLHQDWLNGKEYKCKVSNKALPLPEEKTISKAKGQPREPQVYTLPPSREEMTKNQVSLTCLVKGFYPSDIAVEWESNGQPENNYKTTPPVLDSDGSFFLYSKLTVDKSRWQQGNVFSCSVLHEALHSHYTQKSLSLSPGK light: not shown",16.7,1.67,> 27.3
"1.1.131-1 (antibody, human IgG1, kappa) heavy: QVQLLQSGAAVTKPGASVRVSCEASGYNIRDYFIHWWRQAPGQGLQWVGWINPKTGQPNNPRQFQGRVSLTRHASWDFDTFSFYMDLKALRSDDTAVYFCARQRSDYWDFDVWGSGTQVTVSSASTKGPSVFPLAPSSKSTSGGTAALGCLVKDYFPEPVTVSWNSGALTSGVHTFPAVLQSSGLYSLSSVVTVPSSSLGTQTYICNVNHKPSNTKVDKKVEPKSCDKTHTCPPCPAPELLAGPDVFLFPPKPKDTLMISRTPEVTCVVVDVSHEDPEVKFNWYVDGVEVHNAKTKPREEQYNSTYRVVSVLTVLHQDWLNGKEYKCKVSNKALPLPEEKTISKAKGQPREPQVYTLPPSREEMTKNQVSLTCLVKGFYPSDIAVEWESNGQPENNYKTTPPVLDSDGSFFLYSKLTVDKSRWQQGNVFSCSVLHEALHSHYTQKSLSLSPGK light: not shown",16.4,0.57,> 31.9
"1.1.126-1 (antibody, human IgG1, kappa) heavy: QVQLLQSGAAVTKPGASVRVSCEASGYNIRDYFIHWWRQAPGQGLQWVGWINPKTGQPNNPRQFQGRVSLTRHASWDFDTFSFYMDLKALRSDDTAVYFCARQRSDYWDFDVWGSGTQVTVSSASTKGPSVFPLAPSSKSTSGGTAALGCLVKDYFPEPVTVSWNSGALTSGVHTFPAVLQSSGLYSLSSVVTVPSSSLGTQTYICNVNHKPSNTKVDKKVEPKSCDKTHTCPPCPAPELLAGPDVFLFPPKPKDTLMISRTPEVTCVVVDVSHEDPEVKFNWYVDGVEVHNAKTKPREEQYNSTYRVVSVLTVLHQDWLNGKEYKCKVSNKALPLPEEKTISKAKGQPREPQVYTLPPSREEMTKNQVSLTCLVKGFYPSDIAVEWESNGQPENNYKTTPPVLDSDGSFFLYSKLTVDKSRWQQGNVFSCSVLHEALHSHYTQKSLSLSPGK light: not shown",6.49,0.35,> 50
"1.1.129-1 (antibody, human IgG1, kappa) heavy: QVQLLQSGAAVTKPGASVRVSCEASGYNIRDYFIHWWRQAPGQGLQWVGWINPKTGQPNNPRQFQGRVSLTRHASWDFDTFSFYMDLKALRSDDTAVYFCARQRSDYWDFDVWGSGTQVTVSSASTKGPSVFPLAPSSKSTSGGTAALGCLVKDYFPEPVTVSWNSGALTSGVHTFPAVLQSSGLYSLSSVVTVPSSSLGTQTYICNVNHKPSNTKVDKKVEPKSCDKTHTCPPCPAPELLAGPDVFLFPPKPKDTLMISRTPEVTCVVVDVSHEDPEVKFNWYVDGVEVHNAKTKPREEQYNSTYRVVSVLTVLHQDWLNGKEYKCKVSNKALPLPEEKTISKAKGQPREPQVYTLPPSREEMTKNQVSLTCLVKGFYPSDIAVEWESNGQPENNYKTTPPVLDSDGSFFLYSKLTVDKSRWQQGNVFSCSVLHEALHSHYTQKSLSLSPGK light: not shown",> 29.7,2.09,> 29.7
